Assay results reported in patent CN116406375A, “抗SARS-CoV-2刺突蛋白的三聚体抗体” (UNIV SHANGHAI TECHNOLOGY, dated 2023).

B1: S-D9二聚体 (antibody, V domains shown)
VH: QVQLVQSGAELKKPGESLKISCTASGYSFTNYWIAWVRQMPGKGLEWMGIVNPADSDTRYSPAFQGQVTMSADKSFNTAYLQWSRLKASDTAMYYCARLGQDHNSGWYTYFHPMDVWGQGTTVTVSS
VL: QSALTQPASVSGSPGQSITISCTGTRSDVGGYNYVSWYQQHPGKAPKLLIFGVNDRPSGVSDRFSGSRTGNTASLTISGLQPEDEADYYCSSFTRGTTLLVFG
B2: S-B2二聚体 (antibody, V domains shown)
VH: QVQLQESGGGVVQPGRSLRLSCAASGFTFSSYAMHWVRQAPGKGLEWVAVISYDGSNKYYADSVKGRFTISRDNSKNTLYLQMNSLRAEDTAVYYCARDYGDYLLDYWGQGTLVTVSS
VL: LSALTQPASASGSPGQSVTISCTGTSSDVGGYNYASWYQQHPGKAPKLLIYEVTKRPSGVPDRFSSSKSGNTASLTVSGLQAEDEADYYCSSYTGTLLLFGGGTKLTVL

Biological target: SARS-CoV-2 B.1.617.2假病毒的刺突Δ19 (SARS-CoV-2)
Assay: cell-based or functional assay

Binder | NT50(B.1.617.2) [nM]
B1 | 0.24
B2 | 0.23
